Compound potency records, mixed from different reports. Data source: NIAID ChemDB in PubChem.

Shared fields: tests in culture; species: Herpes simplex virus 1

ECn: concentration that inhibits the pathogen or its effect by n%. Blank or dashed fields: not listed here. Two numbers with a dash give a range or band. Conditions beyond the fields shown may differ between rows.

smiles,method,cells,strain,read-out,result
Cc1cn(C(CCO)OCCO)c(=O)[nH]c1=O,cytopathic effect,HFF,,EC50,>200 µM
Nc1nc2c(ncn2OCC2COP(=O)(O)CO2)c(=O)[nH]1,cytopathic effect,MRC-5,SC16,EC50,32 µM
Nc1nc2c(ncn2[C@@H]2C=C[C@H](CO)CC2)c(=O)[nH]1,,,,EC50,0.01–0.1 µM
NC(N)=N/N=C1/C/C(=N\N=C(N)N)c2cc3ccccc3cc21,virus yield,HEP-2,13 (S11),EC50,6 µM
[N-]=[N+]=N[C@H]1C[C@@H](CO)S[C@@H]1n1cnc2c(N)ncnc21,,,,EC50,>100 µg/mL
Nc1nc(=O)n([C@@H]2O[C@H](CO)[C@@H](O)[C@@H]2F)cc1I,cytopathic effect,HeLa,KOS,EC50,0.07 µg/mL
O=C(Nc1cc(F)ccc1N1CCc2ccccc21)c1ccncc1,plaque count,VERO,F,EC50,>20 µM
O=P1(O)OCC2O[C@@H](n3cnc4c(=S)nc[nH]c43)[C@H](O)C2O1,,,HF,MIC,3.2 µg/mL
O=c1[nH]c(=O)n([C@@H]2O[C@H](CO)[C@@H](O)[C@@H]2F)cc1Cl,plaque count,VERO,2931,EC50,<10 µg/mL
O=c1[nH]c(=O)n([C@H]2C[C@H](O)[C@@H](CO)O2)cc1I,cytopathic effect,HSF,KOS,EC50,0.4 µg/mL
Nc1nc(=O)n([C@@H]2O[C@H](CO)[C@@H](O)[C@@H]2F)cc1I,plaque count,VERO,2931,EC50,<0.01 µg/mL
Nc1ncnc2c1ncn2[C@H]1C[C@H](O)[C@@H](COP(=O)(O)CC(=O)O)O1,plaque count,VERO,HFEM,EC50,>2000 µM
CSc1nsc(-c2ccc(OCCOc3ccc(C#N)cc3)cc2)c1C#N,plaque count,HEP-2/L-929/VERO,F,EC50,>2 µM
Nc1ncnc2c1ncn2[C@H]1C[C@@H](O)[C@H](CO)O1,cytopathic effect,VERO B,F,EC50,>1000 µM
[N-]=[N+]=N[C@H]1C[C@H](CO)S[C@H]1n1cnc2c(Cl)ncnc21,,,,EC50,>100 µg/mL
Nc1ncc2ncn(COC(CO)CO)c2n1,plaque count,VERO,F,EC50,>100 µM
Cc1ccc(CON2CNc3c(ncn3[C@@H]3O[C@H](CO)[C@@H](O)[C@H]3O)C2=N)cc1,cytopathic effect,KB,Strain HF,EC50,100 µg/mL
C#CCOc1cn([C@H]2C[C@H](O)[C@@H](CO)O2)c(=O)[nH]c1=O,cytopathic effect,PRK,KOS F McIntyre,EC50,1 µg/mL
CSc1nsc(-c2ccc(OCCCCOc3ccc([N+](=O)[O-])cc3)cc2)c1C#N,plaque count,HEP-2/L-929/VERO,F,EC50,>0.5 µM
Fc1ccc(N2CCCCC2)c(NC(=S)c2ccncc2)c1,plaque count,VERO,F,EC50,0.69 µM
CSc1nsc(-c2ccc(OCCCCOc3ccccc3)cc2)c1C#N,plaque count,HEP-2/L-929/VERO,F,EC50,>20 µM
Nc1ncnc2c1ncn2[C@@H]1O[C@H](COP(=O)(O)CC(=O)O)[C@@H](O)[C@@H]1O,plaque count,VERO,HFEM,EC50,>2000 µM
Nc1nc2c(ncn2CC=C(CO)CO)c(=O)[nH]1,cytopathic effect,,,EC50,>100 µg/mL
N=C(N)CCNC(=O)c1c[nH]c(NC(=O)c2c[nH]c(NC(=O)/C=C/C(=O)Nc3c[nH]c(C(=O)Nc4c[nH]c(C(=O)NCCC(=N)N)c4)c3)c2)c1,cytopathic effect,PRK,,EC50,10 µg/mL
Nc1nc2c(ncn2C/C=C/CO)c(=O)[nH]1,cytopathic effect,,,EC50,>100 µg/mL
COC(=O)[C@H](C)NP(=O)(OC[C@H]1O[C@@H](n2cc(/C=C/Br)c(=O)[nH]c2=O)C[C@@H]1O)Oc1ccccc1,cytopathic effect,E6SM,KOS,EC50,0.384 µM
Nc1ncnc2c1c(Br)cn2COC(CO)CO,virus yield,HFF,,EC50,<17 µM
COC(=O)C(C)(C)NP(=O)(OC[C@H]1O[C@@H](n2cc(/C=C/Br)c(=O)[nH]c2=O)C[C@@H]1O)Oc1ccccc1,cytopathic effect,E6SM,KOS,EC50,1.92 µM
O=c1[nH]c(=O)n([C@H]2C[C@H](O)[C@@H](CO)O2)cc1/C=C/Br,cytopathic effect,HSF,KOS,EC50,0.01 µg/mL
[N-]=[N+]=N[C@H]1C[C@@H](CO)S[C@H]1n1ccc(N)nc1=O,,,,EC50,>100 µg/mL
C=C[C@@](CO)(CCn1cnc2c(N)ncnc21)c1ccccc1,,,,EC50,>100 µg/mL
O=c1[nH]c(=O)n([C@H]2C[C@H](O)[C@@H](CO)O2)cc1/C=C\Cl,cytopathic effect,PRK,B2006 (TK-),EC50,>200 µg/mL
Nc1nc2c(ncn2[C@@H]2C[C@H](CO)[C@H]2CO)c(=O)[nH]1,,,,EC50,0.01–0.1 µM
O=c1[nH]c(=O)n([C@H]2C[C@H](O)[C@@H](CO)O2)cc1C(F)(F)F,cytopathic effect,PRK,KOS F McIntyre,EC50,0.6 µg/mL
C=Cc1c(C)c2cc3nc(c(CC(=O)O)c4nc(cc5[nH]c(cc1[nH]2)c(C)c5CC)C(C)=C4C(=O)O)[C@@H](CCC(=O)O)[C@@H]3C,plaque count,,KOS,EC50,20.93 µM
CS(=O)Cc1cn([C@H]2C[C@H](O)[C@@H](CO)O2)c(=O)[nH]c1=O,cytopathic effect,PRK,KOS McIntyre F,EC50,>400 µg/mL
CCCn1cnc(=N)c2[nH]cnc21,plaque count,BSC-1,,EC50,>50 µg/mL
CCCCCCCCCCCCCCO[C@H]1O[C@H](COP(=O)(O)C(=O)O)[C@@H](O)[C@H](O)[C@H]1O,,HFF,R39,EC50,45 µM
Nc1nc(=O)n([C@@H]2O[C@H](CO)[C@@H](O)[C@@H]2O)cc1I,plaque count,VERO,2931,EC50,<1 µg/mL
CN1CC[C@H](c2c(O)cc(O)c3c(=O)cc(-c4ccccc4Cl)oc23)[C@H](O)C1,plaque count,VERO,F,EC50,0.034 µM
Nc1ncnc2c1ncn2[C@@H]1O[C@@H](CO)[C@H](O)[C@H]1O,cytopathic effect,VERO B,F,EC50,>1000 µM
[N-]=[N+]=N[C@@H]1C[C@@H](CO)S[C@H]1n1cnc2c(Cl)ncnc21,,,,EC50,>100 µg/mL
Nc1ncnc2c1ncn2[C@@H]1O[C@H](CO)[C@@H](O)[C@@H]1O,cytopathic effect,VERO,KOS,EC50,70 µg/mL
Nc1nc2c(ncn2COCCO)c(=O)[nH]1,cytopathic effect,PRK,KOS F McIntyre,EC50,0.04 µg/mL
O=c1[nH]c(=O)n([C@@H]2O[C@H](CO)[C@@H](O)[C@@H]2O)cc1/C=C/Br,cytopathic effect,PRK,KOS,EC50,0.1 µg/mL
CCOC(=O)c1ccc(OCCC2CCN(c3ccc(C)nn3)CC2)cc1,plaque count,HEP-2/L-929/VERO,F,EC50,>19 µM
O=c1ccn([C@@H]2O[C@H](CO)[C@@H](O)[C@@H]2F)c(=O)[nH]1,plaque count,VERO,2931,EC50,<10 µg/mL
Nc1nc2c(ncn2COCCO)c(=O)[nH]1,plaque count,BALB/3T3,KOS,EC50,0.02 µg/mL
CCCCCCCCCCCCCCCCCCO[C@H]1O[C@H](COP(=O)(O)C(=O)O)[C@@H](O)[C@H](O)[C@H]1O,,HFF,R39,EC50,20 µM
Nc1ncnc2c1ncn2C[C@H]1C[C@H]1CO,cytopathic effect,,,EC50,>100 µg/mL
N=C(N)CCNC(=O)c1c[nH]c(NC(=O)c2c[nH]c(NC(=O)CC(=O)Nc3c[nH]c(C(=O)Nc4c[nH]c(C(=O)NCCC(=N)N)c4)c3)c2)c1,cytopathic effect,PRK,,EC50,4 µg/mL
Nc1nc(=O)n([C@H]2C[C@H](O)[C@@H](CO)O2)cc1/C=C/Cl,cytopathic effect,PRK,McIntyre,EC50,0.07 µg/mL
Nc1nc2c(ncn2CC#CCO)c(=O)[nH]1,cytopathic effect,,,EC50,>100 µg/mL
c1cc(C23CC4CC(CC(C4)C2)C3)no1,,Chick embryo fibroblasts,1C,EC50,8.1 µg/mL
CNc1ncnc2c1ncn2[C@H]1S[C@@H](CO)C[C@@H]1N=[N+]=[N-],,,,EC50,>100 µg/mL
Cc1ccccc1Cn1cnc(=N)c2[nH]cnc21,plaque count,BSC-1,,EC50,>50 µg/mL
CCCCCCCCCCCCCCO[C@@H]1O[C@H](COP(=O)(O)C(=O)O)[C@@H](O)[C@H](O)[C@H]1O,,HFF,R39,EC50,64 µM
Nc1nc2c(ncn2[C@H]2C=C[C@@H](CO)CC2)c(=O)[nH]1,,,,EC50,0.01–0.1 µM
CCCC(=O)N[C@@H](CCC(=O)N[C@@H](CS)C(=O)NCC(=O)O)C(=O)O,plaque count,Macrophages,McIntyre,EC50,2400 µM
COC(=O)CC(SCCO)n1cc(C)c(=O)[nH]c1=O,cytopathic effect,HFF,,EC50,>200 µM
Cc1cccc(Cn2cnc(=N)c3[nH]cnc32)c1,plaque count,BSC-1,,EC50,>50 µg/mL
CCSc1ncnc2c1ncn2[C@@H]1OC2COP(=O)(O)OC2[C@H]1O,,,HF,MIC,3.2–32 µg/mL
O=c1ccn([C@H]2C[C@@H](O)[C@H](CO)O2)c(=O)[nH]1,cytopathic effect,VERO B,F,EC50,>100 µM
N=C(N)CCNC(=O)c1c[nH]c(NC(=O)c2c[nH]c(NC(=O)CCCCCCCC(=O)Nc3c[nH]c(C(=O)Nc4c[nH]c(C(=O)NCCC(=N)N)c4)c3)c2)c1,cytopathic effect,PRK,,EC50,40 µg/mL
Cc1cn([C@@H]2C[C@H](O)[C@@H](CO)S2)c(=O)[nH]c1=O,cytopathic effect,VERO,E-377,EC50,110.1 µg/mL
CCc1cn([C@H]2C[C@H](O)[C@@H](CO)O2)c(=O)[nH]c1=O,cytopathic effect,PRK,KOS F McIntyre,EC50,0.7 µg/mL
CCCCCCCCCCCCCCCCCCCCO[C@@H]1O[C@H](COP(=O)(O)C(=O)O)[C@H](O)[C@H](O)[C@H]1O,,HFF,R39,EC50,15 µM
Cc1cn(C(CCN=[N+]=[N-])OCCO)c(=O)[nH]c1=O,cytopathic effect,HFF,,EC50,>200 µM

A second listing of 8 rows from above:

CSc1nsc(-c2ccc(OCCCCOc3ccc([N+](=O)[O-])cc3)cc2)c1C#N ; method: plaque count ; cells: HEP-2/L-929/VERO ; strain: F ; read-out: EC50 ; result: >0.5 µM
O=c1[nH]c(=O)n([C@H]2C[C@H](O)[C@@H](CO)O2)cc1C(F)(F)F ; method: cytopathic effect ; cells: PRK ; strain: KOS F McIntyre ; read-out: EC50 ; result: 0.6 µg/mL
CNc1ncnc2c1ncn2[C@H]1S[C@@H](CO)C[C@@H]1N=[N+]=[N-] ; read-out: EC50 ; result: >100 µg/mL
Cc1cn([C@@H]2C[C@H](O)[C@@H](CO)S2)c(=O)[nH]c1=O ; method: cytopathic effect ; cells: VERO ; strain: E-377 ; read-out: EC50 ; result: 110.1 µg/mL
Nc1ncnc2c1ncn2[C@@H]1O[C@H](COP(=O)(O)CC(=O)O)[C@@H](O)[C@@H]1O ; method: plaque count ; cells: VERO ; strain: HFEM ; read-out: EC50 ; result: >2000 µM
O=c1[nH]c(=O)n([C@H]2C[C@H](O)[C@@H](CO)O2)cc1/C=C/Br ; method: cytopathic effect ; cells: HSF ; strain: KOS ; read-out: EC50 ; result: 0.01 µg/mL
Nc1nc2c(ncn2[C@@H]2C=C[C@H](CO)CC2)c(=O)[nH]1 ; read-out: EC50 ; result: 0.01–0.1 µM
Nc1ncnc2c1ncn2C[C@H]1C[C@H]1CO ; method: cytopathic effect ; read-out: EC50 ; result: >100 µg/mL